Results as given in paper PMC7298118.
For part of these data: The exact form of at least one protein or probe is not confirmed.

Key:
[1] = biological target: T1, His6-Fur (Klebsiella pneumoniae NTUH-K2044) (UniProt A0ACD7TZA3); assay: EMSA; details: 500 uM MnCl2, 5 mM MgCl2; recombinant protein; residues 1-150; protein details: His6 (pET-28a); label: none (SYBR Green stain); probe letters rebuilt from the primers and the genome
[2] = biological target: T1, His6-Fur (Klebsiella pneumoniae NTUH-K2044); assay: DNase I footprinting; details: His6-Fur 0, 0.5, 1 ug; recombinant protein; residues 1-150; protein details: His6 (pET-28a); label: FAM (M13F-47 primer); probe letters rebuilt from the primers and the genome; part of a longer molecule

Row | Sequence | binding result [1] | binding result [2]
1 | ACCTCCATCGCCTCCAGCGGCGCGGCATAGCGGGCGGAACGCTGCTTTTCCGGGCGAGAGAACGCTTCCCAGCGCTCGGGGATATAGAGCTCGGAAGGCTGACAGGTGTCGAACGGGATAGCCCCGACCATCACCGGCTTGCGGATCCCCGCCGTCCGGGCCTCGGCAAAGGCGGCCGCCATCTGCTGCTGGAACTCGCCGTCCAGCGCATCGCCGCCAACGGCGGGCTGTGAGAAGCGACGGAAGCGGCCTGAAGTGGTAAAACTGCGGTACGGCGACATAAAGAAGAAGCTGTCCGGCGACAGGGTCCGGGTCGGTTTCTTTACATCCTCAGCCAGTGACGTTTCCATATCATCCTCCAAAAACGATAAAGATATTAAGAATAATTATCATTTATATTTTGGTTGGCTAACCTAAAAGGTATTGCCCGCCATGTCAACCGCGTTACGTCATGGCGCCGCCACTTTGGCTTGCATCCTGCTGACACAAAGTTGAAAATGAGACGCATTTATCACCTTTCAAATCAGGATGCGATGACGTGAACTTCTTTTCTTTCTGCCGCCGCGGTGCGCTGACCGGCATGCTGTTGCTTTTAGGAATTACCTCAGCCCAGGCGGCGGACTGGCCGCGCCAGGTCACCGACAGCTACGGGACGCATACC (double strand) [entC promoter, Fur EMSA fragment] | binds | –
2 | AGTGGTAAAACTGCGGTACGGCGACATAAAGAAGAAGCTGTCCGGCGACAGGGTCCGGGTCGGTTTCTTTACATCCTCAGCCAGTGACGTTTCCATATCATCCTCCAAAAACGATAAAGATATTAAGAATAATTATCATTTATATTTTGGTTGGCTAACCTAAAAGGTATTGCCCGCCATGTCAACCGCGTTACGTCATGGCGCCGCCACTTTGGCTTGCATCCTGCTGACACAAAGTTGAAAATGAGACGCATTTATCACCTTTCAA (double strand) [entC promoter, Fur footprint probe] | – | binds
3 | CATCATTCATCCCACAAGCCGATAAAAAAGTATTGTGGCATTAAAGCGTTAAGCCTTCCACCCCCACCGCAAAGGGATAAGCGAGCAAGCCAGCAACCGCTAACGTGGGTTTCATTTGAAGTAAGGAAATTCTGAAAGTAAAAGAATACTGGGCGCGTAACCATAGCATCTATGGGCACTTTTTGTTTTTAATTCGGTCACACTACCGGTTCTTGACTTTACTTTAAGAGTTTTCCTGGCAAATTATATGCATAGATGCGGAATAGTTTAATGGAGCTAATGGGTTCTTTCTAAACCTACTATTATTATCGCCCGCAAGGACTGCTTCGCACAGCCAGTGCGAAGTGTATATCGTTACGTGTTGATTGAGGATGGGTCATGTCAACGATGATTATGGATTTGTGCAGCTATACCCGGTTGGGATTGACGGGATATCTGACCAGTCGGGGAATTAAAAAACAGGAAATCGTTGAGGTCAACAGTGCTGCGGATCTGCAGAAACACTGTACGTCGTGTTGCCCGGCGGTGGTGTTTCTGAATGAAGACTGTTTCGTGCATGATGATGAAAGTAATGGCATTATTCGCCAGATCATTACGCAAAACCCGGCGACGCTGTTTGTTATCTT (double strand) [rcsA promoter, Fur EMSA fragment] | binds | –
